In data set [1] the target is FlaK (MBP fusion) (Plesiomonas shigelloides) (UniProt R8AUG0). The data set can be described thus: EMSA. The following applies: recombinant protein; protein details: MBP (pMAL-c5X); probe letters rebuilt from the primers and the genome. On the technique in general: A gel shift assay detects complexes by their altered migration in electrophoresis.
Data set [2] concerns T1, FlaM (MBP fusion) (Plesiomonas shigelloides).
T1 sequence (looked up): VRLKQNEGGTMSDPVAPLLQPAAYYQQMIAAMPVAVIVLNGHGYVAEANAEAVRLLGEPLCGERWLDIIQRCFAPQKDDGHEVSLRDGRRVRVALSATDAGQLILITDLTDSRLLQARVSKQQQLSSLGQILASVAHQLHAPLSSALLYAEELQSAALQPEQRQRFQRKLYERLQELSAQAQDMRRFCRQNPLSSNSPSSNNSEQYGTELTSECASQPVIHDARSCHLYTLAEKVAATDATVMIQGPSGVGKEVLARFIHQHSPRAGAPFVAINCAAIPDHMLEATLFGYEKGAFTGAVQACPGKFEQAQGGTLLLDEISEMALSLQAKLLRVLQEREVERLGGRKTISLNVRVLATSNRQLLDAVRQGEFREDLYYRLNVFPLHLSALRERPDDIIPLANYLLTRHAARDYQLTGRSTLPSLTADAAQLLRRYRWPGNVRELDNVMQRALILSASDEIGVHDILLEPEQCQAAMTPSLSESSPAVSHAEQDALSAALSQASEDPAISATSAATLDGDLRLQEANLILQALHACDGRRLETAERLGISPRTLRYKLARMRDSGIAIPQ
The data set can be described thus: EMSA. Particulars: recombinant protein; residues 1-568; protein details: MBP (pMAL-c5X); probe letters rebuilt from the primers and the genome.

This is an account of results in PMC11242183.

For some of these results: Tags and fusion partners may be left off the protein sequences shown. For at least one entry, the source does not settle the construct or the ends of the probe.

With “AACGGCGGTAAAGTGATTGGCTTTGATGACCTCGGCGTGCCCGAGGATGTGGCGTTTGCACCAGAAGCCCGTCACGACGATTTACCGTTTCAAGGCGTGGAAAATGACAACTTCCAGCAGGCGCTGGCCGATGCCATTCGCAGCCTGCCGGAGCGCGAAGCCCTCGTGTTGTCACTGTATTACGATGAAGAATTGAATTTAAAAGAAATTGGCGCCGTACTTGGCGTAAGCGAATCGCGGATCAGCCAGATTCTGAGTCAGACGATGCACCGTCTGCGGGCTAAGCTGCATGCTTGGTCAGCCGTATAAGAAGCG (double strand) [cheY promoter]”, the binding result in data set [1] is on record as “binds”. For the sequence “AGCACTTAGACGGATCATCGACCGGCTTACCACCAATCGCCAAGCTCATGTCGATCACCGAAATGGTCTGACCCCGGATATGCGCGATGCCTTTTACGATCGGATTAAGATTCGGTAGCATGGTCAGGCGCGGGCACTGCAGCACTTCGCGTACTTTAAACACGTTAATGCCGTAACGCTGTGACCCGTTGAGTTTAAATGTCAGCAGCTCCAGTCGGTTCTGTCCGACTAATTGTGTGCGCTGATTGACCGAATCCAGAATTCCCGCCATAACGTGCTACTCCCAGGGGTATTTAAAGTGTTTCTTATAACTCGTATACCCCTTAGGATATCAGAGGTATTTTGCATAACAGGAGACGTT (double strand) [flgA promoter]”, in data set [2], the binding result was “binds”. Consider “GAAGTTTGAGACACGGAGCCGGCACTGCCAGCGGCGGGTGGCGCGGCGGGAAGAAGAACGGATTGTGGCATCTCAACCTTCCTTAGGATAATTAGTCATGCAGGGAACAGAGCGCGGCTGACCGGCCAAGCAAAATGCGGCGCAGATCAAATCGCGTCAATTACTCAACCATATGAGCAAAAAGCACGCCAACAAATTGACATCCTGCCAAGATGCTTGCGGCTAAGATACTTGCGTCAATCATATCCGTGCGAATCACACCAGTGCGCTTTAGCACGCTACGTCACTCAACGCAGTTATCTGCTGCATGCGGATTAACGCTGAGTTTGTAAACGGCGCAGCAA (double strand) [fliK promoter]”, for which, in data set [1], the binding result was “binds”.

In the case of “GCAACGTCTTACCGGGTCTTCTCGACCGCAAAATTCTGTGTCTGTAATAAGTAAGGTCTGCGTAATGCAAATTCTCTGCCAGTTTTTGAGCAAAACCGCGTCAGTGTTAAGGCGGTGAGGGCGTGAGCTGGGGCTGTAAAGGACGGTAATTGGCGTGTCATTTTTTTGACTTAAGTCGCAAAGGTGACTATTGGACATATATTGACGCGCGGATTGATTGACAAGTGACAAAGAACAGTCAGAGCGCTTGGCCAGTGTTGCTCAATTAATGGCACGTTACTTGCTTTTGAACTGCGCGTAAAACCGTCCGCGTCATTGTGGCGGTTTCCTTGTTTATCAGAGCCTTGTTCATCAGAGGATTTCGGAGAGTCAGCGTCATGTATCACACAGC (double strand) [fliE promoter]”, the binding result in data set [1] was “binds”. In the case of “GCAAGCTGGCATCTCTGTACTGTCTCAGGCAAACCAGACTCCATCCATGATCATGGGTCTGCTGCGTTAATTACGCCTGATTACGCATAGGTTTTGCCTTGTGATAACCGATGTTGGTTACGCAAAGGAAAACTCGCAATCCAAAAAGGGGCCGACTGGCCCCTTTTTACTGAGTTTTGTTGTTCTTCTTCGCGGATGTGATGGTGAAGGGGCAGAGCAAAGTGCAGTTCTTACGCGCCAATAGCATTCTGCTCTATTGGCTGTGAATTGACTGTTTAATGGCATTTTTCTTGCATCATTTTTTTTTGCATTTAAAGCGTAGCGCATAGCATTTTGCGTCCGAGAGATAAGTACGCTCGGTGGCCGCGCGGTAGACAGAGGATAG (double strand) [flhA promoter]”, the binding result in data set [1] is “binds”. In the case of “GCCGGAGTGTCAATGTCATTACGTGAACCTGAATCGTGATTGCCCGCGGCAGTGGCTGCTGCCGGTGATAACTGTACCGGTTGGCGATGTTATGAGTAATGCAATTAATGTTCCGTTTCATCCGGTTCAAGTTTTTACCGTAACGGGCGATAAGATAACAGAGAATGTGACTGGGACGCAGAACGTGAAGCACATGAAGACATTACTGCCGCTGGCGGCACTCTCCGGGCTGTTATTGACCGGCTGTGCCGGTAATCAACCCTCGGCAGATCAGCCGTATGTTATGGACAAGAATCAGGTTCAGGTGTTGCCACGCCACAGTCTGGACTTTTTTGTCGACGCGATGGCGCGTCAGTTGGT (double strand) [flgT promoter]”, the binding result in data set [2] is listed as “binds”. As for “GTAATGACATTGACACTCCGGCCGCGTGCCACCTGTCTGGCCACCGTGCTTATGCTGGCCAGCAGCTTATATACAAGCAACCTTTATGCCGCTTGGTATCAGACCACCGTCAGTATTCCGACGCAGGCGGGTAGCGAGAGCCAATTGCGCTCGCTCGCGCTCAGTGATGCCAGCGGTCAGCTGCTCGGTTATGCCGGGGTGTCGATGAACTATCAGCAACCGCTGGTCGCATCGCTACTCTCCGGCGATAAAGACGGCCAGACCATTCGTTACGCCGCCGGCAGCCCCGTACATGCAGCAACGGTGGTCAGTAGCGCTACCCAGAATGGCCGCTTTACCCTAACGTTACG (double strand) [flgO promoter]”, the binding result in data set [2] is listed as “binds”.
